Literature values in PMC6359284, “Identification, Characterization, and Optimization of Integrin αvβ6-Targeting Peptides from a One-Bead One-Compound (OBOC) Library: Towards the Development of Positron Emission Tomography (PET) Imaging Agents” (Molecules, 2019).

Details: matrix not stated, cited from earlier work

Substance: [^18F]FB-A20FMDV2
- % intact: 0%

Substance: [^18F]FB-A20FMDV2-PEG28
- % intact at 1 h (1 h): 76%
